{"source": "paper PMC6882899", "about": "(Scientific Reports, 2019)", "origin": "cited, not measured here", "system": "fish", "settings": "cited from earlier work", "data": [{"smiles": "CC[C@H](C)[C@@H]1NC(=O)[C@H](CC(C)C)NC(=O)[C@@H]2CSSC[C@@H](C(N)=O)NC(=O)[C@H](Cc3ccccc3)NC(=O)[C@H](CCCCN)NC(=O)[C@H](CCCCN)NC(=O)[C@H](Cc3c[nH]cn3)NC(=O)[C@H](CC(N)=O)NC(=O)[C@H](CCCNC(=N)N)NC(=O)[C@H](CCCNC(=N)N)NC(=O)[C@H](CSSC[C@H](NC(=O)[C@H](CCCNC(=N)N)NC(=O)[C@H](Cc3c[nH]c4ccccc34)NC(=O)[C@H](CC(N)=O)NC(=O)[C@@H](N)Cc3ccccc3)C(=O)N2)NC(=O)[C@H](C)NC(=O)[C@@H]2CCCN2C1=O", "values": [{"measurement": "effect of injection into fish, in words", "value": "non-lethal"}]}]}
